target: SARS-CoV-2 RBD-His (SARS-CoV-2) (UniProt P0DTC2); assay: BLI

Substance	Kd [nM]
4L12 (from UniProt P01857)	1.49
16L9 (from UniProt P01857)	1.15
GW01 (from UniProt P01857)	1.28
